Results of unrelated studies side by side (data: NIAID ChemDB).

Common to all: whole-cell or culture tests; species: Aspergillus niger; endpoint: zone

Blank or dashed fields: not listed here. Neighbouring rows are from separate reports. Zones are inhibition diameters on agar.

structure,strain or isolate,method,dose,value
Cc1c(Cc2ccc(Cl)cc2)[nH]c(=S)[nH]c1=O,NRRL 599,agar diffusion / agar,200 µg/disc,<10 mm
CC(=O)OC[C@H]1O[C@@H]([n+]2[nH]c(-c3cc4ccccc4[nH]3)nc2S[C@@H]2O[C@H](COC(C)=O)[C@@H](OC(C)=O)[C@H](OC(C)=O)[C@H]2OC(C)=O)[C@H](OC(C)=O)[C@@H](OC(C)=O)[C@@H]1OC(C)=O,,agar diffusion,5000 µg/mL,0 mm
Cc1cccc(N=Nc2c(C)[nH]n(C(=O)c3sc4ccc(Cl)cc4c3Cl)c2=O)c1C,ATCC 9029,agar diffusion / agar,40 µg/mL,17 mm
COc1ccc(C2=NNc3c4ccccc4c4c5cc(C)ccc5nc-4n3C2)cc1,MTCC 281,agar diffusion / visual reading,12.5 µg/mL,8 mm
CCCC(=Nc1cccc(N=C(CCC)c2c(C)[nH]n(-c3ccccc3)c2=O)c1)c1c(C)[nH]n(-c2ccccc2)c1=O,,agar diffusion / agar,400 µg/mL,5 mm
CC(=O)N1N=C(c2sc3ccc(Cl)cc3c2Cl)OC1c1ccc(O)cc1,ATCC 9029,agar diffusion / agar,40 µg/mL,13 mm
C[C@H]1[C@H](O)[C@@H](C)/C=C/C=C/C=C/C=C/C=C/C=C/C=C/[C@H](O[C@@H]2O[C@H](C)[C@@H](O)[C@H](N)[C@@H]2O)C[C@@H]2O[C@](O)(C[C@@H](O)C[C@@H](O)CC[C@H](O)[C@@H](O)C[C@@H](O)CC(=O)O[C@H]1C)C[C@H](O)[C@H]2C(=O)O,,agar diffusion / agar,1000 µg/mL,15.5 mm
COc1ccc(C2SCC(=O)N2NC(=O)Cn2c(=O)c(C)nc3ccccc32)cc1,,,100 µg/mL,14 mm
Cc1c(Cc2ccc(Cl)cc2)nc(SCCN2CCCC2)[nH]c1=O,NRRL 599,agar diffusion / agar,200 µg/disc,<10 mm
Cc1[nH]n(C(=O)c2sc3ccc(Cl)cc3c2Cl)c(=O)c1N=Nc1ccccc1[N+](=O)[O-],ATCC 9029,agar diffusion / agar,40 µg/mL,10 mm
NC(=S)NNC(=O)c1cc2ccccc2[nH]1,,agar diffusion,5000 µg/mL,0 mm
CCc1c(Cc2ccc(C)cc2)nc(SCCN2CCOCC2)[nH]c1=O,NRRL 599,agar diffusion / agar,200 µg/disc,<10 mm
Cc1nc2ccccc2n(CC(=O)NN2C(=O)CSC2c2ccc(N(C)C)cc2)c1=O,,,100 µg/mL,17 mm
CC(C)=NNC(=O)c1snnc1C(F)(F)F,MTCC 1344,agar diffusion / agar,100 µg/mL,0 mm
CCCC(=Nc1cccc(N)c1C)c1c(C)[nH]n(-c2ccccc2)c1=O,,agar diffusion / agar,400 µg/mL,5 mm
Cc1nc2ccccc2n(CC(=O)NN2C(=O)CSC2c2ccccc2O)c1=O,,,100 µg/mL,13 mm
COc1ccc(/C=C2/OC3(COC(=O)N3)N(CCCNc3ccnc4cc(Cl)ccc34)C2=O)cc1,,agar diffusion,400 µg/mL,20 mm
Cc1ccc(C2=NNc3c4ccccc4c4c5cc(Cl)ccc5nc-4n3C2)cc1,MTCC 281,agar diffusion / visual reading,12.5 µg/mL,6 mm
CCc1c(Cc2ccc(Cl)cc2)nc(SCCCN2C(=O)c3ccccc3C2=O)[nH]c1=O,NRRL 599,agar diffusion / agar,200 µg/disc,<10 mm
Cc1nc2ccccc2n(CC(=O)NN2C(=O)CSC2c2ccc(C(F)(F)F)cc2)c1=O,,,100 µg/mL,22 mm
CC(=Nc1ccccc1N)c1c(C)[nH]n(-c2ccccc2)c1=O,,agar diffusion / agar,400 µg/mL,6 mm
Cc1[nH]n(C(=O)c2sc3ccc(Cl)cc3c2Cl)c(=O)c1N=Nc1cccc([N+](=O)[O-])c1,ATCC 9029,agar diffusion / agar,40 µg/mL,10 mm
CCCC(=Nc1ccccc1N)c1c(C)[nH]n(-c2ccccc2)c1=O,,agar diffusion / agar,400 µg/mL,5 mm
CCc1c(Cc2ccc(Cl)cc2)nc(SCCN2C(=O)c3ccccc3C2=O)[nH]c1=O,NRRL 599,agar diffusion / agar,200 µg/disc,<10 mm
Cc1ccc(Cl)cc1N=Nc1c(C)[nH]n(C(=O)c2sc3ccc(Cl)cc3c2Cl)c1=O,ATCC 9029,agar diffusion / agar,40 µg/mL,17 mm
O=C1NC2(CO1)O/C(=C/c1ccc([N+](=O)[O-])cc1)C(=O)N2CCCNc1ccnc2cc(Cl)ccc12,,agar diffusion,200 µg/mL,39 mm
Cc1c(Cc2ccc(Cl)cc2)nc(SCCN2C(=O)c3ccccc3C2=O)[nH]c1=O,NRRL 599,agar diffusion / agar,200 µg/disc,<10 mm
O=C(NN=C1CCCC1)c1snnc1C(F)(F)F,MTCC 1344,agar diffusion / agar,100 µg/mL,0 mm
COc1ccc2nc3n4c(c5ccccc5c-3c2c1)NN=C(c1ccccc1)C4,MTCC 281,agar diffusion / visual reading,25 µg/mL,7 mm
CCc1c(Cc2ccc(OC)c(OC)c2)nc(SCCN(CC)CC)[nH]c1=O,NRRL 599,agar diffusion / agar,200 µg/disc,25 mm
Cc1[nH]n(-c2ccccc2)c(=O)c1C(=Nc1ccccc1N)c1ccccc1,,agar diffusion / agar,400 µg/mL,6 mm
CC(=O)OC[C@H]1O[C@@H](Sc2n[nH]c(-c3cc4ccccc4[nH]3)n2)[C@H](OC(C)=O)[C@@H](OC(C)=O)[C@@H]1OC(C)=O,,agar diffusion,5000 µg/mL,0 mm
CC(=NNC(=O)c1snnc1C(F)(F)F)c1ccccn1,MTCC 1344,agar diffusion / agar,150 µg/mL,0 mm
OC(Cn1cncn1)(Cn1cncn1)c1ccc(F)cc1F,MTCC 281,agar diffusion / visual reading,3.125 µg/mL,14 mm